No dose or concentration is given here for some results.
B1: YBL039C (protein, UniProt P28274 1-579, looked up)
CTP synthase 1: MKYVVVSGGVISGIGKGVLASSTGMLMKTLGLKVTSIKIDPYMNIDAGTMSPLEHGECFVLDDGGETDLDLGNYERYLGVTLTKDHNITTGKIYSHVIAKERKGDYLGKTVQIVPHLTNAIQDWIERVAKIPVDDTGMEPDVCIIELGGTVGDIESAPFVEALRQFQFKVGKENFALIHVSLVPVIHGEQKTKPTQAAIKGLRSLGLVPDMIACRCSETLDKPTIDKIAMFCHVGPEQVVNVHDVNSTYHVPLLLLEQKMIDYLHARLKLDEISLTEEEKQRGLELLSKWKATTGNFDESMETVKIALVGKYTNLKDSYLSVIKALEHSSMKCRRKLDIKWVEATDLEPEAQESNKTKFHEAWNMVSTADGILIPGGFGVRGTEGMVLAARWARENHIPFLGVCLGLQIATIEFTRSVLGRKDSHSAEFYPDIDEKNHVVVFMPEIDKETMGGSMRLGLRPTFFQNETEWSQIKKLYGDVSEVHERHRHRYEINPKMVDELENNGLIFVGKDDTGKRCEILELKNHPYYIATQYHPEYTSKVLDPSKPFLGLVAASAGILQDVIEGKYDLEAGENKFNF
B2: YNL255C (protein, UniProt P53849 1-153, looked up)
Zinc finger protein GIS2: MSQKACYVCGKIGHLAEDCDSERLCYNCNKPGHVQTDCTMPRTVEFKQCYNCGETGHVRSECTVQRCFNCNQTGHISRECPEPKKTSRFSKVSCYKCGGPNHMAKDCMKEDGISGLKCYTCGQAGHMSRDCQNDRLCYNCNETGHISKDCPKA
B3: YNL307C (protein, UniProt P21965 2-375, looked up)
Protein kinase MCK1: STEEQNGVPLQRGSEFIADDVTSNKSNNTRRMLVKEYRKIGRGAFGTVVQAYLTQDKKNWLGPFAIKKVPAHTEYKSRELQILRIADHPNIVKLQYFFTHLSPQDNKVYQHLAMECLPETLQIEINRYVTNKLEMPLKHIRLYTYQIARGMLYLHGLGVCHRDIKPSNVLVDPETGVLKICDFGSAKKLEHNQPSISYICSRFYRAPELIIGCTQYTTQIDIWGLGCVMGEMLIGKAIFQGQEPLLQLREIAKLLGPPDKRFIFFSNPAYDGPLFSKPLFSGSSQQRFEKYFGHSGPDGIDLLMKILVYEPQQRLSPRRILAHQFFNELRNDDTFLPRGFTEPIKLPNLFDFNDFELQILGEFADKIKPTKVAE
B4: YOR042W (protein, UniProt Q08412 1-411, looked up)
Ubiquitin-binding protein CUE5: MEEKEGIKDSSLLEKSNVPESINEDISKTTDVDLNSDGKKDNDTSAKDGTPKVEEKVNKSSGIDEDEVVTPAEDAKEEEEEHPPLPARRKSEEEPSKENPILQELKDAFPNLEEKYIKAVIIASQGVLSPAFNALLFLSDPESGKDIELPTQPVRKNPEAPARRRQTQLEQDELLARQLDEQFNSSHSRRRNRDRATRSMHEQRRRRHNPNEREQHHEDSEEEDSWSQFVEKDLPELTDRAGRSLQDTANKVSNWISDAYRRNFASGNEQNDNQHGHQDQQEWEPEIVDLSQGGKNSRPQQPERRRFNSFGVQVGDDSLESHGITLHNEDGFEDDEDVPPQLPTRTKSGESTGKVVAETTYIDTPDTETKKKWQPLPPEPLDTTPTKVNAVSRNKKNPDEDEFLINSDDEM
B5: YGL099W (protein, UniProt P53145 1-640, looked up)
Large subunit GTPase 1: MPPKEAPKKWKAPKGPKPTHRKNKNKLELGRAIKYARQKENAIEYLPDGEMRFTTDKHEANWVKLRSVTQESALDEFLSTAALADKDFTADRHSNVKIIRMDSGNDSATSQGFSMTNEQRGNLNAKQRALAKDLIVPRRPEWNEGMSKFQLDRQEKEAFLEWRRKLAHLQESNEDLLLTPFERNIEVWKQLWRVVERSDLVVQIVDARNPLLFRSVDLERYVKESDDRKANLLLVNKADLLTKKQRIAWAKYFISKNISFTFYSALRANQLLEKQKEMGEDYREQDFEEADKEGFDADEKVMEKVKILSIDQLEELFLSKAPNEPLLPPLPGQPPLINIGLVGYPNVGKSSTINSLVGAKKVSVSSTPGKTKHFQTIKLSDSVMLCDCPGLVFPNFAYNKGELVCNGVLPIDQLRDYIGPAGLVAERIPKYYIEAIYGIHIQTKSRDEGGNGDIPTAQELLVAYARARGYMTQGYGSADEPRASRYILKDYVNGKLLYVNPPPHLEDDTPYTREECEEFNKDLYVFDRLPDTRKEQVQNAAKAKGIDIVDLARDLNQLTFSAHTGGDTQKEAKSVTHGGKQAALYNAAEDLDRDFFKMNNVEGRLSTPFHKVQNSSAGKRHNKKNKSKNAKSKVFSIENN
B6: YJR083C (protein, UniProt P47129 1-309, looked up)
Assembly-complementing factor …: MSEDQRVISQPIELHKLSIVDKHSQGQQQQPHQKQHEVQPESKSPRVTTPLKPKRLAIPISSPQRSTTNQSPVSDHASPISTDQDLIYKLAAKHREINELSFKLEVAQKELKQLELQFKDTLPRNGQQKLGNQNPSEYLSTFTKRIQQTFVDVNNSPNMLKGKKSINDFFSKPNNNVNSNINNTLPNRKPNPPPNRSQRMQNIAPSRSSESTPTSGPPLLPPRNTMKNANTTATAGENTPFLQRILNKFNQMNMEEDEFDDLLEKRKSKKDHYYIKENLGYEYDEVRSEDEDDEEFEPMGDIPVHLFKR
B7: YNL094W (protein, UniProt P53933 1-587, looked up)
Phosphatidate phosphatase APP1: MNSQGYDESSSSTAATSGPTSGDPRMGKKQRFMNLIRTTKDVYIPNLTSSISQKTMDGIRSTTNSFEGYNDLPMELPHNTTITYFPTYTTTNLVDPDGLSAPRKDFETTVRCAVSYPGNPTSRRNRWLLSLCKQYLRTGTAEADVAPVVPPHLEEDSGDLNDSQSSIESSLSSKSENRYSHMGIQEEDVLNERIQGFLSKKVPNTPVVVDLLPKDKLRGDTASFFGTTDSYGNLLIKAETDFLPSKINITLDTPIEGHADPISETFPANYVSPYGIGLISDIDDTIKHTGVTGDRRSMFRNVFIHDVQSWVIDGVPLWYKTLHDVADVDFFYVSNSPIQTFTLLKQYICANFPPGPIFLKQYSGNFFSTIMTSSANRKIQPIANILKDFPKKKFILVGDSGEHDLEAYTTTALQFPNQILAIYIRCCSNSMSDVPSHDEEVMNEVNNIIELQQRPMQMTKSTVRTRRRPPPPPIPSTQKPSLTEEQTESIRMSRRNKDENNAKRVAPPPLPNRQLPNLDANTYYVPSSQNDYGMYGAFMDKKADEWKRRVMDSIQKLSNQDTTLMFFSDPALSLEDSIRRIREKYSN
B8: YBR130C (protein, UniProt P38272 1-425, looked up)
SWI5-dependent HO expression …: MSDQDNTQTSSSKLAPHHNIFMANLESSPTKDRNTSSQNASSSRVIESLHDQIDMLTKTNLQLTTQSQNLLSKLELAQSKESKLLENLNLLKNENENLNSIFERKNKKLKELEKDYSELSNRYNEQKEKMDQLSKLAKNSSAIEQSCSEKLQNMEVNYNSLLESQNLYRDHYSDEISKLNEKIGLLELELSNQNLNYGSDTSSNSDIELNLNKFNDSVKDLKSLETEKDSKLSKIITHSLDELNLQSWLNLYQTNENLISTFAEKMDLKDVLKRNDEKISNKGAVVQTLKKNVQTQVESNNADALSSNNAQDMLPIKMVKLRKTPNTNDSSSNGNSSNNKRRSFYTASPLLSSGSIPKSASPVLPGVKRTASVRKPSSSSSKTNVTHNNDPSTSPTISVPPGVTRTVSSTHKKKGNSMVVHGAQS
B9: YOR284W (protein, UniProt Q12134 1-243, looked up)
Protein HUA2: MQQTKFGKMYLDHDSVVEYSEDEIVEADRITLGYKKRLSMIENQMRHLLEDFSLDVQQIEPILADLQKYYDAFLQLLQKRNKSLQCKRSTHQPVPSPMNSQTSTNAKVNLSGKLMKFQLNSVQKFDEENILRILQNKIEFEHYFQIDKGKKQKVLLLAVYQCLNGPTRLHKVLNIEGIIHNNSIRTILGKQVSSSKWTVFLYDVKLVLLAHRQDVPNLETSKMIVRYGDLFPCALYFKDHTAY
B10: YKL117W (protein, UniProt P28707 2-216, looked up)
Co-chaperone protein SBA1: SDKVINPQVAWAQRSSTTDPERNYVLITVSIADCDAPELTIKPSYIELKAQSKPHVGDENVHHYQLHIDLYKEIIPEKTMHKVANGQHYFLKLYKKDLESEYWPRLTKEKVKYPYIKTDFDKWVDEDEQDEVEAEGNDAAQGMDFSQMMGGAGGAGGAGGMDFSQMMGGAGGAGSPDMAQLQQLLAQSGGNLDMGDFKENDEEDEEEEIEPEVKA
B11: YBL071W-A (protein, UniProt Q3E840 1-82, looked up)
Diphthamide biosynthesis …: MSTYDEIEIEDMTFEPENQMFTYPCPCGDRFQIYLDDMFEGEKVAVCPSCSLMIDVVFDKEDLAEYYEEAGIHPPEPIAAAA
B12: YNL287W (protein, UniProt P32074 1-935, looked up)
Coatomer subunit gamma: MSAHTYKKFENSTSGDLPDKMTIYQDCMNTFNESPVNSKRCRLLISRLLRLLAQGETFPQNEATALFFSISKLFQHQNDPLRQAVYLAIKELSGISEDVLMATSSIMKDVQNGSDLIKPDAIRSLTYVLDESTAFSAERLLKSAVVSRHPSISSAALCTSYHLLPISEVTIRRFTNETQEAVLDLKQFPNQHGNSEYYPNSTYISQYHALGLLYQLKKTDKMALLKLVRHFSENNSMKNQLAKVELVKIVNDLIYRDPQLFSQFRPLLSDWLSNKFESVQLETAKLITSFATRNSRLVAPELYAAAISALQSLLTVPRVSSRFAALRILNRISMVSPEKIVVCNPELESLINDSNRNISTYAITTLLKTGTSKNISSLISTITNFIHDVSDDFKIIIIDAVRTLSLNFPQEWKSILNFLIDVLKNSEGGFKFKNSIVEALIDIVSFVPQSKELALENLCDFIEDCEFNEILVRILHLLGKEGPSAPNPSLYVRHIYNRVVLENSIIRSAAVVALSKFALTKNDPTLYESIISLLKRIANDKDDEVRDRATIALEFIDSARNKDDVIAQNLIESKYFYDIPSLESKLSSYISSNTDSFATAFDVNQVRKFTEDEMKAINLKRKQEQIFNQKSETTLDTTPEAESVPEKRADANSFAGPNLDDHQEDLLATKYADELLSIEQIKPFGQLVNSSRAISLTEPEAEFVVRGVKHLFKDNVVLQFNITNTLTDIALDNVSVVCTPEISDEAELEELFTLQVDRLLPSEEAACYVAFKKLDEIVMEGFLNNLTFTTKEINPDTNEPFDGDEGFQDEYEIDSIFLNAGDYVKSSFTGNFSATFDELPCEEVAVFNIQEDLSIQEVVDKIILNSSCLPVESTQFAPSDSNSHTLKLFGKSALTGSKVALQIKMIKSSKGLALKVHGKGEDSLLCSDLVNGLMQ

Each molecule was assayed on ABP1 (assay: DHFR-PCA on solid medium, bait ABP1 (Fig. 1B)). Conditions: bait ABP1, label = prey.
Format: cell-based, Saccharomyces cerevisiae
Set-up: key: 0: SH3-independent; 1: SH3-dependent PPIs; 2: SH3-inhibited PPIs
From the text: Supplement 41467_2021_21873_MOESM8_ESM.xlsx, sheet "Fig1B" | column: medsize; medrep; Ratio; Score

| Molecule | Score |
| --- | --- |
| B1 | 0 |
| B2 | 0 |
| B3 | 0 |
| B4 | 0 |
| B5 | 1 |
| B6 | 1 |
| B7 | 1 |
| B8 | 0 |
| B9 | 1 |
| B10 | 2 |
| B11 | 2 |
| B12 | 2 |

From PMC7954794, “Protein context shapes the specificity of SH3 domain-mediated interactions in vivo” (Nature Communications, 2021)
